Anti-infective test results gathered from many reports (values: NIAID ChemDB through PubChem).

Common to all: tests in culture

Inhibition is in % at the dose shown (toxicity tests: loss of growth or viability).

SMILES,dose,strain,method,cell line,endpoint,species,result
NCS(=O)(=O)O,5 µg/mL,-,cytopathic effect,Human amnion AV3 cells,inhibition,Herpes simplex virus,10%
CO[C@H]1/C=C/O[C@@]2(C)Oc3c(C)c(O)c4c(O)c(c(/C=N/N5CCN(C6CCCC6)CC5)c(O)c4c3C2=O)NC(=O)/C(C)=C\C=C\[C@H](C)[C@H](O)[C@@H](C)[C@@H](O)[C@@H](C)[C@H](OC(C)=O)[C@@H]1C,-,953,-,-,MIC,Mycobacterium avium intracellulare,1 µg/mL
Cc1nc(NCCCCNc2ccnc3cc(Cl)ccc23)nc(-c2ccccc2)c1C(=O)OC(C)C,-,29/10893,-,-,MIC99,Cryptococcus gattii,4 µg/mL
C=C/C(C)=C/[C@@]1(C)SC(=O)C(C)=C1O,-,SJ260 (F143),-,-,MIC,Escherichia coli,>600 µM
COc1ccc(CNC(=O)c2c3n(c(=O)n2-c2ccc(OC(C)C)cc2)CCN(C(=O)c2ccc(Br)c(Cl)c2)C3)c(F)c1,-,-,PCR,HepG2.117,EC50,Hepatitis B virus,<0.1 µM
Nc1ncnc2c1ncn2C=C1CC1CO,-,VR6264 (ganciclovir-resistant),plaque count,-,EC50,Human cytomegalovirus,0.6 µM
O=S(=O)(O)c1cc(O)c2c(O)c(N=Nc3ccccc3)c(S(=O)(=O)O)cc2c1,10 µg/mL,-,cytopathic effect,Human conjunctiva cells,inhibition,Herpes simplex virus,90%
CCOC(=O)c1ccc(OCCC2CCN(c3ccc(C)nn3)CC2)cc1,-,6360-CV41 (ICAM-1 receptor group 63),neutral red,KB,EC50,Rhinovirus,0.027 µM
OC[C@H]1O[C@@H](n2c(Cl)nc3cc(Cl)c(Cl)cc32)[C@H](O)[C@@H]1O,-,Recombinant C4 (D341E),virus yield,-,EC50,Human cytomegalovirus,<39 µM
CN[C@H]1CC[C@@H](c2ccc(Cl)c(Cl)c2)c2ccccc21,-,Bt81,broth dilution,-,MFC,Cryptococcus neoformans,8 µg/mL
Cc1cc(-c2ccc(N=Nc3c(S(=O)(=O)O)cc4cc(S(=O)(=O)O)cc(N)c4c3O)c(C)c2)ccc1N=Nc1c(S(=O)(=O)O)cc2cc(S(=O)(=O)O)cc(N)c2c1O,10 µg/mL,-,cytopathic effect,Human embryonic lung cells,inhibition,Rhinovirus,0%
COc1ccc(-n2c(C(=O)NCc3ccccc3)c3n(c2=O)CCN(C(=O)c2ccc(Cl)c(Cl)c2)C3)c(C)c1,-,-,PCR,HepG2.117,EC50,Hepatitis B virus,>5 µM
Nc1nc2c(ncn2COCCO)c(=O)[nH]1,0.1 µg/mL,Ohtomo,plaque count,HELF,inhibition,Varicella zoster virus,61%
CCOC(=O)/C=C/[C@H](C[C@@H]1CCNC1=O)NC(=O)[C@@H](CC(=O)[C@@H](NC(=O)c1cc(C)on1)C(C)C)Cc1ccc(F)cc1,-,Isolate 10,cytopathic effect / visual reading,OHIO HELA-I,EC50,Rhinovirus,0.01 µg/mL
O=C(Nc1ccc2cc(S(=O)(=O)[O-])cc(S(=O)(=O)[O-])c2c1)c1ccccc1,50 µg/mL,TYPE 3,cytopathic effect,Human embryonic lung cells,inhibition,Adenovirus,0%
O=C(NCc1ccccc1)c1c2n(c(=O)n1-c1ccc3nonc3c1)CCN(C(=O)c1ccc(Br)c(Cl)c1)C2,-,-,PCR,HepG2.117,EC50,Hepatitis B virus,0.5–5 µM
O=c1[nH]c(=O)n([C@H]2C[C@H](O)[C@@H](CO)O2)cc1/C=C/Br,0.1 µg/mL,OKA,plaque count,HELF,inhibition,Varicella zoster virus,10%
C[C@H](NC(=O)c1c2n(c(=O)n1-c1ccc(OC3CC3)cc1)CCN(C(=O)c1ccc(Br)c(Cl)c1)C2)c1ccccc1-n1cncn1,-,-,PCR,HepG2.2.15,EC50,Hepatitis B virus,>5 µM
Oc1ccccc1N=Cc1ccc(F)cc1,-,ATCC 62066,broth dilution,-,MIC,Cryptococcus neoformans,1.4 µg/mL
O=C(NCc1ccccc1-c1ccccn1)c1c2n(c(=O)n1-c1ccc(OCC(F)(F)F)cc1)CCN(C(=O)c1ccc(Br)c(Cl)c1)C2,-,-,PCR,HepG2.117,EC50,Hepatitis B virus,<0.1 µM
O=C(O)c1ccc(S(=O)(=O)[O-])cc1C(=O)O,10 µg/mL,-,cytopathic effect,Human amnion AV3 cells,inhibition,Herpes simplex virus,0%
C=CCc1ccc(OC)c(OC)c1,-,ATCC 750,turbidity,-,MIC90,Candida tropicalis,345 µg/mL
Cn1cc(C(=O)NCc2ccc(Cl)cc2)c(=O)c2cc(CN3CCOCC3)ccc21,3.6 µM,NA varicella isolate,plaque count,HFF,inhibition,Varicella zoster virus,90%
CCOC(=O)c1cnc(NCCCCNc2ccnc3cc(Cl)ccc23)nc1C,-,L24/01,-,-,MIC99,Cryptococcus gattii,8 µg/mL
COc1ccc([C@@H](C)NC(=O)c2c3n(c(=O)n2-c2ccc(OC(C)C)cc2)CCN(C(=O)c2ccc(Br)c(Cl)c2)C3)c(F)c1,-,-,PCR,HepG2.117,EC50,Hepatitis B virus,<0.1 µM
Oc1ccccc1N=Cc1cccc(O)c1O,-,5396,-,-,MIC99,Cryptococcus neoformans,4 µg/mL
COc1cc(C#N)ccc1CNC(=O)c1c2n(c(=O)n1-c1ccc(OCC(F)(F)F)cc1)CCN(C(=O)c1ccc(Br)c(Cl)c1)C2,-,-,PCR,HepG2.117,EC50,Hepatitis B virus,0.1–0.5 µM
Cc1cc(-c2ccc(N=Nc3ccc4c(S(=O)(=O)O)cc(S(=O)(=O)O)c(N)c4c3O)c(C)c2)ccc1N=Nc1ccc2c(S(=O)(=O)O)cc(S(=O)(=O)O)c(N)c2c1O,10 µg/mL,-,cytopathic effect,Human conjunctiva cells,inhibition,Herpes simplex virus,100%
CCc1cn([C@@H]2O[C@H](CO)[C@@H](O)[C@@H]2O)c(=O)[nH]c1=O,1000 µg/mL,Ohtomo,plaque count,HELF,inhibition,Varicella zoster virus,63%
CCC(CC)O[C@@H]1C=C(C(=O)O)C[C@H](N)[C@H]1NC(C)=O,-,Isolate G72,plaque count,MDCK,EC50,Influenza B virus,≤0.01 µg/mL
C=Cc1cn([C@@H]2O[C@H](CO)[C@@H](O)[C@@H]2O)c(=O)[nH]c1=O,1 µg/mL,YS,plaque count,HELF,inhibition,Varicella zoster virus,44%
CCC(CC)O[C@@H]1C=C(C(=O)O)C[C@H](N)[C@H]1NC(C)=O,-,B/Beijing/184/93,-,MDCK,EC50,Influenza B virus,0.11 µM
Cc1cn([C@@H]2O[C@H](CO)[C@@H](O)[C@@H]2O)c(=O)[nH]c1=O,1 µg/mL,Asahikawa,plaque count,HELF,inhibition,Varicella zoster virus,100%
O=S(=O)(O)c1cccc2c(O)cccc12,10 µg/mL,TYPE 3,cytopathic effect,Human embryonic lung cells,inhibition,Adenovirus,0%

3 of the rows above, restated:

SMILES,dose,strain,method,cell line,endpoint,species,result
COc1cc(C#N)ccc1CNC(=O)c1c2n(c(=O)n1-c1ccc(OCC(F)(F)F)cc1)CCN(C(=O)c1ccc(Br)c(Cl)c1)C2,-,-,PCR,HepG2.117,EC50,Hepatitis B virus,0.1–0.5 µM
O=S(=O)(O)c1cccc2c(O)cccc12,10 µg/mL,TYPE 3,cytopathic effect,Human embryonic lung cells,inhibition,Adenovirus,0%
CN[C@H]1CC[C@@H](c2ccc(Cl)c(Cl)c2)c2ccccc21,-,Bt81,broth dilution,-,MFC,Cryptococcus neoformans,8 µg/mL

ECn: concentration that inhibits the pathogen or its effect by n%. Two numbers with a dash give a range or band. Lines come from different laboratories, so protocols vary. Blank or dashed fields: not listed here. A number after MIC or MFC names an inhibition level or a share of isolates.